The target of this assay is Ascaris suum succinate-ubiquinone reductase (mitochondrial complex II) (Ascaris suum, UniProt O44074+P92506+P92507). As to the kind of experiment: In vitro measurement of inhibitory activity on Ascaris suum succinate-ubiquinone reductase (mitochondrial complex II). Type of assay: biochemical. To be noted: read-out: Ascaris suum IC50 value (A); mitochondria from adult Ascaris suum muscle, UQ2 60 μM, succinate 10 mM, 25° C. As for the experimental part: In Vitro Measurement of Inhibitory Activity on Ascaris suum Succinate-Ubiquinone Reductase (Mitochondrial Complex II)
To a solution containing 50 mM potassium phosphate (pH 7.4) and 0.1% (w/v) sucrose monolaurate, an electron acceptor ubiquinone-2 (UQ2) was added at a final concentration of 60 μM, and the mixture was allowed to stand at 25° C. for 20 minutes. To this, potassium cyanide (final concentration: 2 mM) and mitochondria prepared from adult Ascaris suum muscle were added, and thorough mixing was done. To aliquots of the mixture, an inhibitor to be tested was added at various concentrations, and the mixtures were allowed to stand at 25° C. for 3 minutes. The enzymatic reaction was initiated by addition of potassium succinate (final concentration: 10 mM). The enzymatic activity was calculated based on the measurement of change in the absorbance at 278 nm of UQ2 (e=1.5×10^4 M^−1 cm^−1), and IC50 was determined from the plot of the inhibition percentage against the inhibitor concentration.

The chains behind the UniProt entries cited, without tags or fusion partners. Residues count along the entry.
UniProt O44074, 22-282 limits assumed: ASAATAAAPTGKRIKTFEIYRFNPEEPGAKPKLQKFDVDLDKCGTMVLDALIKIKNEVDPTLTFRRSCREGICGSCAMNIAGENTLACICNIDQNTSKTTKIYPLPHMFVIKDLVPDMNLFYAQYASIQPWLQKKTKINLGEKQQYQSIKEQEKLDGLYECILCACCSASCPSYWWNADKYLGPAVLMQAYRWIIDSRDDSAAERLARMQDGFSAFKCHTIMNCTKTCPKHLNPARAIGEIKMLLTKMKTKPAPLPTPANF
UniProt P92506, 32-188 limits assumed: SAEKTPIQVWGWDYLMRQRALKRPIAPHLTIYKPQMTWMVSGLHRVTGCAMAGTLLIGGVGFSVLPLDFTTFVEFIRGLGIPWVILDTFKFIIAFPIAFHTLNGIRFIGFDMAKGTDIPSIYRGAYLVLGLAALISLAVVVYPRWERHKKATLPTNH
UniProt P92507, 26-156 limits assumed: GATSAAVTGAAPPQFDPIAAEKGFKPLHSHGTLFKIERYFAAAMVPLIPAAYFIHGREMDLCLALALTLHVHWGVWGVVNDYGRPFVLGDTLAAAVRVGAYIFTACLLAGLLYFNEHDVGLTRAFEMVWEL
UniProt Q33862, 19-645 partner limits assumed: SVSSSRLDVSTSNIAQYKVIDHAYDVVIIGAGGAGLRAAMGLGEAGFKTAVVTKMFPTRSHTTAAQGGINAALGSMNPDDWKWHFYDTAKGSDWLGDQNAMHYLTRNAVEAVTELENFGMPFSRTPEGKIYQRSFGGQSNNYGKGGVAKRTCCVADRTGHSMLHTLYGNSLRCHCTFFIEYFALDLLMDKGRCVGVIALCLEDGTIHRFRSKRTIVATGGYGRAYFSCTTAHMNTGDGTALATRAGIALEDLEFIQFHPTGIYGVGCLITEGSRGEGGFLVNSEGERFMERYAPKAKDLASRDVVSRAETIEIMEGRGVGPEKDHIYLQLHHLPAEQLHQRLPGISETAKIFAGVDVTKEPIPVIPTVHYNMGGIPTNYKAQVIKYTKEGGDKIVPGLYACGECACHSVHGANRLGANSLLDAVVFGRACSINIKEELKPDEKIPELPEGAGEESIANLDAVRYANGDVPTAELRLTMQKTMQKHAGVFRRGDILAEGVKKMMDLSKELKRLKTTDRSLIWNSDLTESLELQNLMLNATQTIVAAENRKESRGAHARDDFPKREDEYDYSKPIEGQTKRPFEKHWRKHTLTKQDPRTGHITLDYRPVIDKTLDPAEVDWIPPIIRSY

Consider one compound from US9550749B2, “Endoparasite control agent and method for using the same” (The University of Tokyo, priority 2012, dated 2017).

`C[C@@H](Cn1nc(Cl)c(Cl)c1C(F)(F)F)NC(=O)c1ccccc1I`: the IC50 stood at 2.5 nM.

The term IC50 denotes the midpoint of a concentration-inhibition curve.
